Measured values from several laboratories, pooled; numbers as filed in NIAID ChemDB.

Common to all: target-level tests; organism: HIV-1; protein: Reverse transcriptase

a–b is a range or a potency band.

{"smiles": "O=C(NC1CCC1)c1[nH]c2ccc(Cl)cc2c1S(=O)(=O)c1ccccc1", "read-out": "IC50", "read by": "nucleotide incorporation", "result": "0.003–0.035 µM"}
{"smiles": "CCCCCCCCCCCCCCCc1cccc(O)c1", "read-out": "IC50", "read by": "RT activity / RNase H", "result": ">200 µM"}
{"smiles": "O=C(NCc1ccco1)c1[nH]c2ccc(Cl)cc2c1Sc1ccccc1", "read-out": "IC50", "read by": "nucleotide incorporation", "result": "0.003–0.035 µM"}
{"smiles": "COc1ccc(OS(=O)(=O)c2c3occc3c(OC)c3c(=O)cc(C)oc23)cc1", "read-out": "IC50", "read by": "RT activity / radiometric", "result": "0.0000087 µM"}
{"smiles": "S=C(NCc1ccco1)c1[nH]c2ccc(Cl)cc2c1Sc1ccccc1", "read-out": "IC50", "read by": "nucleotide incorporation", "result": "0.003–0.035 µM"}
{"smiles": "CCn1c(=O)c(C)cn([C@@H]2O[C@H](CO[Si](C)(C)C(C)(C)C)C3(OS(=O)(=O)C=C3N)[C@H]2O[Si](C)(C)C(C)(C)C)c1=O", "read-out": "IC50", "changes": "RT-E138K(P66)", "result": "44.7 µM"}
{"smiles": "CCN1c2ncccc2C(=O)N(C)c2ccc(-c3c[nH]c(C#N)c3)nc21", "read-out": "IC50", "changes": "RT-Y188L", "read by": "nucleotide incorporation / radiometric", "result": "<1 µM"}
{"smiles": "O=C(O)/C=C/c1ccc(N=Nc2c(S(=O)(=O)O)cc3cc(NC(=O)Nc4ccc5c(O)c(N=Nc6ccc(/C=C/C(=O)O)cc6)c(S(=O)(=O)O)cc5c4)ccc3c2O)cc1", "read-out": "IC50", "read by": "nucleotide incorporation", "result": "0.024 µM"}
{"smiles": "COc1cccc(CNC(=O)c2[nH]c3ccc(Cl)cc3c2Sc2ccccc2)c1", "read-out": "IC50", "read by": "nucleotide incorporation", "result": "0.003–0.035 µM"}
{"smiles": "Nc1cnc2c(c1)CN(c1nn3c(C4CC4)nnc3c3ccccc13)CC2", "read-out": "IC50", "strain": "KER2008", "read by": "RT activity / fluorescence", "result": "26.7 µM"}
{"smiles": "Cc1ccc(S(=O)(=O)n2c(=O)[nH]c3ccc(Cl)cc32)cc1C", "read-out": "IC50", "changes": "K103N", "read by": "nucleotide incorporation", "result": "1.2 µM"}
{"smiles": "COc1c2ccoc2c(S(=O)(=O)OC2CCCCC2)c2oc(C)cc(=O)c12", "read-out": "IC50", "read by": "RT activity / radiometric", "result": "0.0000092 µM"}
{"smiles": "CC(C)=CCOc1cc(NC(=S)c2ccoc2C)ccc1Cl", "read-out": "IC50", "changes": "RT-M184V", "result": "4.2 µM"}
{"smiles": "Cn1cnc(CNC(=O)c2[nH]c3ccc(Cl)cc3c2S(=O)(=O)c2ccccc2)c1", "read-out": "IC50", "read by": "nucleotide incorporation", "result": "0.003–0.035 µM"}
{"smiles": "CCN1c2ncccc2C(=O)N(C)c2ccc(-c3c[nH]c4ccccc34)nc21", "read-out": "IC50", "changes": "RT-Y188L", "read by": "nucleotide incorporation / radiometric", "result": "<1 µM"}
{"smiles": "C/C(=C\\CC/C(C)=C/CCc1ccoc1)C/C=C/C1=CCC(=O)OC1", "read-out": "IC50", "read by": "nucleotide incorporation / radiometric", "result": "3.2 µM"}
{"smiles": "O=C(NC1CC1)c1[nH]c2ccc(Cl)cc2c1S(=O)(=O)c1ccccc1", "read-out": "IC50", "read by": "nucleotide incorporation", "result": "0.003–0.035 µM"}
{"smiles": "CCN1c2ncccc2C(=O)N(C)c2ccc(-c3cccn3C)nc21", "read-out": "IC50", "strain": "WT", "read by": "nucleotide incorporation / radiometric", "result": "<1 µM"}
{"smiles": "CC(C)=CCOc1cc(NC(=S)c2ccsc2C)ccc1Cl", "read-out": "IC50", "changes": "RT-Y181I", "result": "1.2 µM"}
{"smiles": "COc1ccc2c(c1)CN(c1nn3c(C)nnc3c3ccccc13)CC2", "read-out": "IC50", "strain": "IIIB", "read by": "RT activity / fluorescence", "result": "3.31 µM"}
{"smiles": "CCN1c2ncccc2C(=O)N(C)c2ccc(-c3cn[nH]c3)nc21", "read-out": "IC50", "changes": "RT-Y181C", "read by": "nucleotide incorporation / radiometric", "result": "<1 µM"}
{"smiles": "CCCCCC/C=C/CCCCCCCc1cccc(O)c1C(=O)O", "read-out": "IC50", "read by": "RT activity / nucleotide incorporation", "result": ">100 µM"}
{"smiles": "CCCN1c2nc(-c3cn[nH]c3)ccc2NC(=O)c2cccnc21", "read-out": "IC50", "changes": "RT-Y181C", "read by": "nucleotide incorporation / radiometric", "result": "<1 µM"}
{"smiles": "CCCCCC/C=C/CCCCCCCCCc1cccc(O)c1", "read-out": "IC50", "read by": "RT activity / RNase H", "result": ">200 µM"}
{"smiles": "O=C(NC1CC1)c1[nH]c2ccc(Cl)cc2c1S(=O)c1ccccc1", "read-out": "IC50", "read by": "nucleotide incorporation", "result": "0.003–0.035 µM"}
{"smiles": "c1coc(-c2nnc3c4ccccc4c(N4CCc5ccccc5C4)nn23)c1", "read-out": "IC50", "strain": "KER2008", "read by": "RT activity / fluorescence", "result": "0.59 µM"}
{"smiles": "CCN1c2ncccc2C(=O)N(C)c2ccc(-c3cc[nH]c3C(C)=O)nc21", "read-out": "IC50", "changes": "RT-Y181C", "read by": "nucleotide incorporation / radiometric", "result": "<1 µM"}
{"smiles": "CC(C)=CCN1Cc2cc(Cl)cc3[nH]c(=O)n(c23)C[C@@H]1C", "read-out": "IC50", "changes": "RT-Y181C", "read by": "RT activity", "result": "12 µM"}
{"smiles": "COc1c2ccoc2c(S(=O)(=O)Oc2ccc(F)cc2)c2oc(C)cc(=O)c12", "read-out": "IC50", "read by": "RT activity / radiometric", "result": "0.0000088 µM"}
{"smiles": "CCOCn1c(Sc2ccccc2)c(CC)c(=O)[nH]c1=O", "read-out": "IC50", "changes": "RT-Y181I", "read by": "nucleotide incorporation", "result": "4.7 µM"}
{"smiles": "COc1c(-c2cc(C)on2)c(O)c(S(=O)(=O)OC2CCCCC2)c2occc12", "read-out": "IC50", "read by": "RT activity / radiometric", "result": "0.0000063 µM"}
{"smiles": "FC(F)(F)c1nnc2c3ccccc3c(N3CCc4ccccc4C3)nn12", "read-out": "IC90", "strain": "98US_MSC5016", "read by": "RT activity / fluorescence", "result": "24.3 µM"}
{"smiles": "CCN1c2ncccc2C(=O)N(C)c2ccc(-c3cnn(CC)c3)nc21", "read-out": "IC50", "changes": "RT-Y188L", "read by": "nucleotide incorporation / radiometric", "result": ">1 µM"}

The first 5 rows once more:

smiles | read-out | changes | strain | read by | result
O=C(NC1CCC1)c1[nH]c2ccc(Cl)cc2c1S(=O)(=O)c1ccccc1 | IC50 | - | - | nucleotide incorporation | 0.003–0.035 µM
CCCCCCCCCCCCCCCc1cccc(O)c1 | IC50 | - | - | RT activity / RNase H | >200 µM
O=C(NCc1ccco1)c1[nH]c2ccc(Cl)cc2c1Sc1ccccc1 | IC50 | - | - | nucleotide incorporation | 0.003–0.035 µM
COc1ccc(OS(=O)(=O)c2c3occc3c(OC)c3c(=O)cc(C)oc23)cc1 | IC50 | - | - | RT activity / radiometric | 0.0000087 µM
S=C(NCc1ccco1)c1[nH]c2ccc(Cl)cc2c1Sc1ccccc1 | IC50 | - | - | nucleotide incorporation | 0.003–0.035 µM

An empty or dashed field is not shown. Lines come from different laboratories, so protocols vary. ICn: concentration for n% inhibition.